Data as given in PubChem BioAssay AID1259414 (Drosophila RNAi Screening Center, 2018).
Test: 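Fly genes that alter Wolbachia amount inside host cells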 (primary screen). Cells: Drosophila JW18 cells infected with Wolbachia. Knock-down reagent: long dsRNA against Drosophila genes, 0.25 µg dsRNA per well of a 384-well plate. Timing: 5 days. Treatment: cells persistently infected with Wolbachia before knock-down; no added drug. Detection: 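Automated imaging of bacterial rRNA staining divided by host cell count, reported as plate-normalised robust z-score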. Reading the numbers: Wolbachia per cell robust z: higher = more Wolbachia per host cell than the plate typical. Hit rule: 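Active if absolute robust z reaches 1.5 in two or more of three replicates, leaving out multi- or no-target dsRNAs, genes unexpressed in JW18 and A1 wells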.
The screen tested about 24,000 reagents; below is an unselected part of those with a known target gene and a result. Of all reagents, about 1,210 (5%) got an active call. 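Inactive calls also include excluded dsRNAs with several or no targets, genes unexpressed in JW18, and well A1, regardless of score.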 The numbers tell different reagents against one gene apart. A plus sign joins genes that one reagent is predicted to hit.

gene,dsRNA no.,"Wolbachia per cell robust z, rep 1","Wolbachia per cell robust z, rep 2","Wolbachia per cell robust z, rep 3",Call
ssp,1,-0.0636,-0.14,0.876,inactive
dsx,1,-0.827,-0.277,-4.24,inactive
dsx,2,0.762,-0.131,0.626,inactive
dsx,3,-0.21,0.549,0.295,inactive
dsx,4,-0.127,0.192,-0.0478,inactive
dsx,5,-2.79,0.27,0.3,inactive
GLS,1,-1.06,0.132,0.785,inactive
GLS,2,0.175,-0.23,1.66,inactive
Zip102B,1,0.197,0.476,-3.47,inactive
Zip102B,2,-1.74,-2.12,-1.39,active
Paip1,1,0.234,-0.287,0.48,inactive
Paip1,2,0.218,0.845,0.0624,inactive
CG2182,1,-2.44,-0.524,-0.385,inactive
CG2182,2,0.68,-0.436,0.245,inactive
Amyrel,1,-4.29,-0.581,-0.228,inactive

The list goes on; the last 4 above are carried over.
gene,dsRNA no.,"Wolbachia per cell robust z, rep 1","Wolbachia per cell robust z, rep 2","Wolbachia per cell robust z, rep 3",Call
Paip1,2,0.218,0.845,0.0624,inactive
CG2182,1,-2.44,-0.524,-0.385,inactive
CG2182,2,0.68,-0.436,0.245,inactive
Amyrel,1,-4.29,-0.581,-0.228,inactive
Acp76A,1,-1.29,-0.508,-1.97,inactive
Acp76A,2,-0.919,-1.71,-0.176,inactive
Acp76A,3,0.594,1.24,2.13,inactive
Spase22-23,1,0.428,-2.31,0.252,inactive
Recs1,1,0.814,-6.41,0.203,inactive
wmd,1,0.154,-5.25,-1.29,inactive
wmd,2,-0.939,-1.13,-0.66,inactive
Cyt-b5,1,0.91,-0.909,-0.195,inactive
CG11666,1,-0.105,0.458,-0.19,inactive
CG14204,1,0.575,0.828,1.02,inactive
CG14204,2,-1.03,-1.53,0.471,inactive
CG40045,1,0.863,0.102,1.27,inactive
CG31068,1,-0.0974,0.266,0.566,inactive
CG33509,1,1.16,-0.615,1.41,inactive
l(1)G0004,1,-0.178,1.82,0.478,inactive
CG7164,1,0.845,1.1,0.869,inactive
CG7164,2,-0.367,0.34,0.251,inactive
Hmr,1,-2.25,1.35,-1.23,inactive
Fs,1,-2.1,0.151,0.0216,inactive
Fs,2,-4.04,0.637,0.9,inactive
Fs,3,-0.871,-0.82,-0.0207,inactive
CG15741,1,-2.46,-1.75,-0.156,inactive
CG15741,2,0.295,1.64,1.31,inactive
CG10182,1,0.45,-0.79,0.668,inactive
CG10182,2,0.204,-0.813,-0.448,inactive
CG10182,3,0.0132,0.55,0.402,inactive
CG11699,1,0.425,-0.808,0.0954,inactive
CG11699,2,0.248,-2.59,0.182,inactive
Tsp42Eb + CG30160,1,-0.892,-7.7,-1.39,inactive
Patr-1,1,-8.37,-4.8,-0.689,active
Patr-1,2,0.657,-0.426,-0.677,inactive
